Data: patent publication US9617289B2, “RSV antiviral compounds” (JANSSEN R&D IRELAND, priority 2012, dated 2017)

System: HeLa cells
Assay: Cytotoxicity in HeLa cells (ATP content, ATPlite kit); SI calculated as CC50/EC50
Type: cell-based
Conditions: SI is calculated as CC50/EC50, three days

Question: CS(=O)(=O)CCCn1c(CN2C(=O)C3(CN(C(=O)C(F)(F)F)C3)c3ccccc32)nc2cc(Cl)ccc21 [Compound 31, 1-({5-chloro-1-[3-(methylsulfonyl)propyl]-1H-benzimidazol-2-yl}methyl)-1-(trifluoroacetyl)spiro-[azetidine-3,3′-indol]-2′(1′H)-one] was tested. Which SI did it give?
Answer: >34055.7

Question: For CC(=O)N1CCC2(CC1)C(=O)N(Cc1nc3cc(Cl)ccc3n1CCCS(C)(=O)=O)c1ccccc12 [Compound 32, 1′-acetyl-1-({5-chloro-1-[3-(methylsulfonyl)propyl]-1H-benzimidazol-2-yl}methyl)spiro[indole-3,4′-piperidin]-2(1H)-one], which SI is on record?
Answer: >147839

Question: For CS(=O)(=O)CCCn1c(CN2C(=O)C3(CN(S(=O)(=O)c4ccc(F)cc4)C3)c3ccccc32)nc2cc(Cl)ccc21 [Compound 33, 1′-({5-chloro-1-[3-(methylsulfonyl)propyl]-1H-benzimidazol-2-yl}methyl)-1-[(4-fluorophenyl)-sulfonyl]spiro[azetidine-3,3′-indol]-2′(1′H)-one], which SI is on record?
Answer: >563300

Question: How did the SI turn out when CS(=O)(=O)CCCn1c(CN2C(=O)C3(CCN(S(=O)(=O)c4ccc(F)cc4)CC3)c3ccccc32)nc2cc(Cl)ccc21 [Compound 34, 1-({5-chloro-1-[3-(methylsulfonyl)propyl]-1H-benzimidazol-2-yl}methyl)-1′-[(4-fluorophenyl)-sulfonyl]spiro[indole-3,4′-piperidin]-2(1H)-one] was run?
Answer: >79744.4

Question: With CS(=O)(=O)CCCn1c(CN2C(=O)C3(CCN(S(=O)(=O)C4CC4)CC3)c3ccccc32)nc2cc(Cl)ccc21 [Compound 35, 1-({5-chloro-1-[3-(methylsulfonyl)propyl]-1H-benzimidazol-2-yl}methyl)-1′-(cyclopropylsulfonyl)-spiro[indole-3,4′-piperidin]-2(1H)-one] as the molecule, how does the SI read?
Answer: 65535

Question: For COc1ccc(S(=O)(=O)N2CCC3(CC2)C(=O)N(Cc2nc4cc(Cl)ccc4n2CCCS(C)(=O)=O)c2ccccc23)cc1 [Compound 36, 1-({5-chloro-1-[3-(methylsulfonyl)propyl]-1H-benzimidazol-2-yl}methyl)-1′-[(4-methoxyphenyl)-sulfonyl]spiro[indole-3,4′-piperidin]-2(1H)-one], which SI is on record?
Answer: 353419

Question: For CS(=O)(=O)CCCn1c(CN2C(=O)C3(CCCC3)c3ccncc32)nc2cc(Cl)ccc21 [Compound 37, 1′-((5-chloro-1-(3-(methylsulfonyl)propyl)-1H-benzo[d]-imidazol-2-yl)methyl)spiro[cyclopentane-1,3′-pyrrolo[2,3-c]pyridin]-2′(1′H)-one], which SI is on record?
Answer: >935083

Question: Which SI does the source give for CS(=O)(=O)CCCn1c(CN2C(=O)C3(CCOCC3)c3ccncc32)nc2cc(Cl)ccc21 [Compound 38, 1′-((5-chloro-1-(3-(methylsulfonyl)propyl)-1H-benzo[d]-imidazol-2-yl)methyl)-2,3,5,6-tetrahydrospiro[pyran-4,3′-pyrrolo[2,3-c]pyridin]-2′(1′H)-one] here?
Answer: >571387

Question: For CC(C)(C)OC(=O)N1CCC2(CC1)C(=O)N(Cc1nc3cc(Cl)ccc3n1CCCS(C)(=O)=O)c1ccccc12 [Compound 39, tert-butyl 1-((5-chloro-1-(3-(methylsulfonyl)propyl)-1H-benzo[d]imidazol-2-yl)methyl)-2-oxospiro[indoline-3,4′-piperidine]-1′-carboxylate], which SI is on record?
Answer: 59894

Question: Which SI does the source give for CS(=O)(=O)CCCn1c(CN2C(=O)C3(CCOCC3)c3ccccc32)nc2cc(Cl)ccc21 [Compound 40, 1-((5-chloro-1-(3-(methylsulfonyl)propyl)-1H-benzo[d]-imidazol-2-yl)methyl)-2′,3′,5′,6′-tetrahydrospiro[indoline-3,4′-pyran]-2-one] here?
Answer: >43461

Question: CS(=O)(=O)CCCn1c(CN2C(=O)C3(CCOCC3)c3cnccc32)nc2cc(Cl)ccc21 [Compound 41, 1-((5-chloro-1-(3-(methylsulfonyl)propyl)-1H-benzo[d]-imidazol-2-yl)methyl)-2,3,5,6-tetrahydrospiro[pyran-4,3′-pyrrolo[3,2-c]pyridin]-2′(1′H)-one] was tested. Which SI did it give?
Answer: >2230.95

Question: CC(=O)N1CCC2(CC1)C(=O)N(Cc1nc3cc(Cl)ccc3n1CCCS(C)(=O)=O)c1cnccc12 [Compound 42, 1-acetyl-1′-((5-chloro-1-(3-(methylsulfonyl)propyl)-1H-benzo[d]imidazol-2-yl)methyl)spiro[piperidine-4,3′-pyrrolo-[2,3-c]pyridin]-2′(1′H)-one] was tested. Which SI did it give?
Answer: >655360

Question: For O=C(Oc1ccc(F)cc1)N1CC2(C1)C(=O)N(Cc1nc3cc(Cl)ccc3n1CCCC(F)(F)F)c1ccccc12 [Compound 43, 4-fluorophenyl 1′-((5-chloro-1-(4,4,4-trifluorobutyl)-1H-benzo[d]imidazol-2-yl)methyl)-2′-oxospiro[azetidine-3,3′-indoline]-1-carboxytale], which SI is on record?
Answer: >419527

Question: For CC(C)COC(=O)N1CC2(C1)C(=O)N(Cc1nc3cc(Cl)ccc3n1CCCC(F)(F)F)c1ccccc12 [Compound 45, isobutyl 1′-((5-chloro-1-(4,4,4-trifluorobutyl)-1H-benzo[d]-imidazol-2-yl)methyl)-2′-oxospiro[azetidine-3,3′-indoline]-1-carboxylate], which SI is on record?
Answer: >227520

Question: With O=C1N(Cc2nc3cc(Cl)ccc3n2CCCC(F)(F)F)c2ccccc2C12CNC2 [Compound 46, 1′-((5-chloro-1-(4,4,4-trifluorobutyl)-1H-benzo[d]imidazol-2-yl)methyl)spiro[azetidine-3,3-indolin]-2′-one] as the molecule, how does the SI read?
Answer: >155253

Question: CC(C)(C)OC(=O)N1CCC2(CC1)C(=O)N(Cc1nc3cc(Cl)ccc3n1CCCC(F)(F)F)c1ccccc12 [Compound 48] was tested. Which SI did it give?
Answer: >43054.6

Question: Which SI does the source give for O=C1N(Cc2nc3cc(Cl)ccc3n2CCCC(F)(F)F)c2ccccc2C12CCNCC2 [Compound 49, 1-((5-chloro-1-(4,4,4-trifluorobutyl)-1H-benzo[d]imidazol-2-yl)methyl) spiro[indoline-3,4′-piperidin]-2-one] here?
Answer: 2615

Question: O=C1N(Cc2nc3cc(Cl)ccc3n2CCCC(F)(F)F)c2ccccc2C12CCOCC2 [Compound 52, 1-((5-chloro-1-(4,4,4-trifluorobutyl)-1H-benzo[d]imidazol-2-yl)methyl)-2′,3′,5′,6′-tetrahydrospiro[indoline-3,4′-pyran]-2-one] was tested. Which SI did it give?
Answer: 22757

Question: CC(C)(C)OC(=O)N1CCC2(CC1)C(=O)N(Cc1nc3cc(Cl)ccc3n1CCCC#N)c1cnccc12 [Compound 53, tert-butyl 1′-((5-chloro-1-(3-cyanopropyl)-1H-benzo[d]-imidazol-2-yl)methyl)-2′-oxo-1′,2′-dihydrospiro[piperidine-4,3′-pyrrolo[2,3-c]pyridine]-1-carboxylate] was tested. Which SI did it give?
Answer: >305014

Question: For CS(=O)(=O)CCCn1c(CN2C(=O)C3(CCCC3)c3ccncc32)cc2cc(Cl)ccc21 [Compound 54, 1′-({5-chloro-1-[3-(methylsulfonyl)propyl]-1H-indol-2-yl}methyl)spiro [cyclopentane-1,3′-pyrrolo[2,3-c]pyridin]-2′(1′H)-one], which SI is on record?
Answer: 20155

Question: Which SI does the source give for CC(=O)N1CCC2(CC1)C(=O)N(Cc1cc3cc(Cl)ccc3n1CCCS(C)(=O)=O)c1cnccc12 [Compound 56, 1-acetyl-1′-({5-chloro-1-[3-(methylsulfonyl)propyl]-1H-indol-2-yl}methyl)spiro[piperidine-4,3′-pyrrolo[2,3-c]pyridin]-2′(1′H)-one] here?
Answer: >298202

Question: For CS(=O)(=O)CCCn1c(CN2C(=O)C3(CCOCC3)c3cnccc32)cc2cc(Cl)ccc21 [Compound 57], which SI is on record?
Answer: 842.91

Question: For CC(C)(C)OC(=O)N1CC2(C1)C(=O)N(Cc1cc3cc(Cl)ccc3n1CCCC#N)c1ccccc12 [Compound 58, tert-butyl 1′-{[5-chloro-1-(3-cyanopropyl)-1H-indol-2-yl]-methyl}-2′-oxo-1′,2′-dihydro-1H-spiro[azetidine-3,3′-indole]-1-carboxylate], which SI is on record?
Answer: >386305

Question: For N#CCCCn1c(CN2C(=O)C3(CNC3)c3ccccc32)cc2cc(Cl)ccc21 [Compound 59, 4-{5-chloro-2-[(2′-oxospiro[azetidine-3,3′-indol]-1′(2′H )-yl)-methyl]-1H-indol-1-yl}butanenitrile], which SI is on record?
Answer: 14980

Question: How did the SI turn out when N#CCCCn1c(CN2C(=O)C3(CN(S(=O)(=O)C4CC4)C3)c3ccccc32)cc2cc(Cl)ccc21 [Compound 61, 4-(5-chloro-2-{[1-(cyclopropylsulfonyl)-2′-oxospiro-[azetidine-3,3′-indol]-1′(2′H)-yl]methyl}-1H-indol-1-yl)-butanenitrile] was run?
Answer: >241324

Question: How did the SI turn out when CC(=O)N1CC2(C1)C(=O)N(Cc1cc3cc(Cl)ccc3n1CCCC#N)c1ccccc12 [Compound 62, 4-{2-[(1-acetyl-2′-oxospiro[azetidine-3,3′-indol]-1′(2′H)-yl)-methyl]-5-chloro-1H-indol-l-yl}butanenitrile] was run?
Answer: 46732

Question: How did the SI turn out when CC(C)(C)OC(=O)N1CCC2(CC1)C(=O)N(Cc1cc3cc(Cl)ccc3n1CCCC#N)c1cnccc12 [Compound 63, tert-butyl 1′-((5-chloro-1-(3-cyanopropyl)-1H-indol-2-yl)-methyl)-2′-oxo-1′,2′-dihydrospiro[piperidine-4,3′-pyrrolo-[2,3-c]pyridine]-1-carboxylate] was run?
Answer: 100580

Question: With CC(=O)N1CCC2(CC1)C(=O)N(Cc1cc3cc(Cl)ccc3n1CCCC#N)c1cnccc12 [Compound 64, 4-(2-((1-acetyl-2′-oxospiro[piperidine-4,3′-pyrrolo[2,3-c]-pyridin]-1′(2′H)-yl)methyl)-5-chloro-1H-indol-1-yl)butane-nitrile] as the molecule, how does the SI read?
Answer: >379778

Question: With O=C1N(Cc2nc3nc(Cl)ccc3n2CCCC(F)(F)F)c2cnccc2C12CCCC2 [Compound 65, 1′-((5-chloro-1-(4,4,4-trifluorobutyl)-1H-imidazo[4,5-b]-pyridin-2-yl)methyl)spiro[cyclopentane-l,3′-pyrrolo[2,3-c]-pyridin]-2′(1′H)-one] as the molecule, how does the SI read?
Answer: 158245

Question: With O=C1N(Cc2nc3nc(Cl)ccc3n2CCCC(F)(F)F)c2cnccc2C12CCOCC2 [Compound 67, 1′-((5-chloro-1-(4,4,4-trifluorobutyl)-1H-imidazo[4,5-b]-pyridin-2-yl)methyl)-2,3,5,6-tetrahydrospiro[pyran-4,3′-pyrrolo[2,3-c]pyridin]-2′(1′H)-one] as the molecule, how does the SI read?
Answer: 1260115
